Potato spindle tuber viroid, loop 6: variant abundance in plants

Data from the supplement of Wu et al. 2024, doi:10.1371/journal.ppat.1012142.

PSTVd intermediate strain, loop 6: wild type UGACCGCGAG, pool pattern UNNNCGNNNG; upper and lower strand joined, each 5' to 3', the first 5 letters being the upper strand, closing pairs included.

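A pool of all variants was put on leaves of three Nicotiana benthamiana plants. Samples came from the inoculated region at 5 days, the leaf margin at 10 and upper systemic leaves at 12.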

Values are reads per thousand in the sample; higher means more abundant, 0 means not found.
Each site shows the three plants.
"Pool" is the share in the plasmid pool used as inoculum, on the same scale.
The inoculated region was read from the minus strand, the other sites from the plus strand.
IR is the inoculated region, LM the leaf margin, Sys the systemic leaves.
The authors trace changes outside the varied positions to PCR and sequencing errors or to mutation in the plant; presence does not show that a variant is infectious alone.
For reference, wild type rose from 20.7 per thousand in the pool to 195, 198, 203 (inoculated region), 629, 591, 734 (leaf margin) and 942, 870, 868 (systemic leaves).
Samples held 36,220 to 57,551 reads, so the smallest values rest on one or two reads.

{"sequence": "UCUACGUACG", "pool": "0.222", "IR": "0.139 / 0.0719 / 0.0553", "LM": "0.0276 / 0 / 0.0232", "Sys": "0 / 0 / 0"}
{"sequence": "UCUACGUAGG", "pool": "0.196", "IR": "0.209 / 0.126 / 0.129", "LM": "0.138 / 0 / 0", "Sys": "0 / 0 / 0"}
{"sequence": "UCUACGUAUG", "pool": "0.301", "IR": "0.104 / 0.0898 / 0.0922", "LM": "2.57 / 0.0252 / 0.0696", "Sys": "0 / 0 / 0"}
{"sequence": "UCUACGUCAG", "pool": "0.288", "IR": "0.243 / 0.0359 / 0.0922", "LM": "0.0552 / 0 / 0.0232", "Sys": "0 / 0 / 0"}
{"sequence": "UCUACGUCCG", "pool": "0.170", "IR": "0.0521 / 0.0898 / 0.129", "LM": "0.0276 / 0 / 0", "Sys": "0 / 0 / 0"}
{"sequence": "UCUACGUCGG", "pool": "0.157", "IR": "0.122 / 0.0719 / 0.0738", "LM": "0.0828 / 0 / 0", "Sys": "0 / 0 / 0"}
{"sequence": "UCUACGUCUG", "pool": "0.275", "IR": "0.104 / 0.108 / 0.0922", "LM": "0 / 0 / 0", "Sys": "0 / 0 / 0"}
{"sequence": "UCUACGUGAG", "pool": "0.209", "IR": "0.156 / 0.0898 / 0.0922", "LM": "0.0552 / 0 / 0.0232", "Sys": "0 / 0 / 0"}
{"sequence": "UCUACGUGCG", "pool": "0.327", "IR": "0.174 / 0.144 / 0.111", "LM": "0.0276 / 0 / 0", "Sys": "0 / 0 / 0"}
{"sequence": "UCUACGUGGG", "pool": "0.157", "IR": "0.156 / 0.0359 / 0.0738", "LM": "0.0276 / 0 / 0.0232", "Sys": "0 / 0 / 0"}
{"sequence": "UCUACGUGUG", "pool": "0.196", "IR": "0.122 / 0.216 / 0.129", "LM": "0 / 0 / 0.0464", "Sys": "0 / 0 / 0"}
{"sequence": "UCUACGUUAG", "pool": "0.366", "IR": "0.0521 / 0.0180 / 0.0553", "LM": "0.0276 / 0 / 0.0232", "Sys": "0 / 0 / 0"}
{"sequence": "UCUACGUUCG", "pool": "0.261", "IR": "0.0695 / 0.108 / 0.0553", "LM": "0.359 / 0 / 0", "Sys": "0 / 0 / 0"}
{"sequence": "UCUACGUUGG", "pool": "0.235", "IR": "0.122 / 0.0539 / 0.129", "LM": "0 / 0 / 0", "Sys": "0 / 0 / 0"}
{"sequence": "UCUACGUUUG", "pool": "0.405", "IR": "0.0695 / 0.0719 / 0.0184", "LM": "0.0828 / 0 / 0", "Sys": "0 / 0 / 0"}
{"sequence": "UCUACUGUCC", "pool": "0.0131", "IR": "0 / 0 / 0", "LM": "0.0276 / 0 / 0", "Sys": "0 / 0 / 0"}
{"sequence": "UCUCCACGGG", "pool": "0.0131", "IR": "0 / 0 / 0", "LM": "0 / 0 / 0", "Sys": "0 / 0 / 0"}
{"sequence": "UCUCCCCGAG", "pool": "0.0131", "IR": "0 / 0 / 0", "LM": "0 / 0 / 0", "Sys": "0 / 0 / 0"}
{"sequence": "UCUCCGAAAG", "pool": "0.0915", "IR": "0.174 / 0.126 / 0.0553", "LM": "0 / 0 / 0", "Sys": "0 / 0 / 0"}
{"sequence": "UCUCCGAACG", "pool": "0.235", "IR": "0.0521 / 0.0719 / 0.0369", "LM": "0 / 0 / 0.0464", "Sys": "0 / 0 / 0"}
{"sequence": "UCUCCGAAGG", "pool": "0.170", "IR": "0.191 / 0.108 / 0.0738", "LM": "0 / 0 / 0.0232", "Sys": "0 / 0 / 0"}
{"sequence": "UCUCCGAAUG", "pool": "0.327", "IR": "0.122 / 0.126 / 0.0738", "LM": "0 / 0 / 0", "Sys": "0 / 0 / 0"}
{"sequence": "UCUCCGACAG", "pool": "0.131", "IR": "0.139 / 0.0180 / 0.148", "LM": "0.0276 / 0 / 0", "Sys": "0 / 0 / 0"}
{"sequence": "UCUCCGACCG", "pool": "0.301", "IR": "0.0348 / 0.0898 / 0.0922", "LM": "0 / 0 / 0.0232", "Sys": "0 / 0 / 0"}
{"sequence": "UCUCCGACGG", "pool": "0.235", "IR": "0.104 / 0.108 / 0.129", "LM": "0 / 0 / 0.0232", "Sys": "0 / 0 / 0"}
{"sequence": "UCUCCGACUG", "pool": "0.288", "IR": "0.122 / 0.144 / 0.129", "LM": "0 / 0 / 0.0232", "Sys": "0 / 0 / 0"}
{"sequence": "UCUCCGAGAG", "pool": "0.118", "IR": "0.243 / 0.108 / 0.0184", "LM": "0 / 0.0252 / 0", "Sys": "0 / 0 / 0"}
{"sequence": "UCUCCGAGCG", "pool": "0.131", "IR": "0.104 / 0.0719 / 0.0738", "LM": "0 / 0 / 0", "Sys": "0 / 0 / 0"}
{"sequence": "UCUCCGAGGG", "pool": "0.131", "IR": "0.0869 / 0.0898 / 0.0369", "LM": "0.0276 / 0 / 0", "Sys": "0 / 0 / 0.0205"}
{"sequence": "UCUCCGAGUG", "pool": "0.157", "IR": "0.104 / 0.0539 / 0.0738", "LM": "0 / 0 / 0.0464", "Sys": "0 / 0 / 0"}
{"sequence": "UCUCCGAUAG", "pool": "0.327", "IR": "0.261 / 0.108 / 0.148", "LM": "0 / 0 / 0.232", "Sys": "0 / 0 / 0"}
{"sequence": "UCUCCGAUCG", "pool": "0.288", "IR": "0.0869 / 0.0539 / 0.0922", "LM": "0.0276 / 0 / 0", "Sys": "0 / 0 / 0"}
{"sequence": "UCUCCGAUGG", "pool": "0.261", "IR": "0.191 / 0.126 / 0.129", "LM": "0 / 0.0504 / 0", "Sys": "0 / 0 / 0"}
{"sequence": "UCUCCGAUUG", "pool": "0.248", "IR": "0.139 / 0.144 / 0.0553", "LM": "0 / 0 / 0.0232", "Sys": "0 / 0 / 0"}
{"sequence": "UCUCCGCAAG", "pool": "0.0784", "IR": "0.660 / 0.683 / 0.479", "LM": "0 / 0.101 / 0.0696", "Sys": "0 / 0 / 0"}
{"sequence": "UCUCCGCACG", "pool": "0.248", "IR": "0.0869 / 0.0898 / 0.0553", "LM": "0 / 0 / 0", "Sys": "0 / 0 / 0"}
{"sequence": "UCUCCGCAGG", "pool": "0.196", "IR": "0.139 / 0.0719 / 0.129", "LM": "0 / 0 / 0", "Sys": "0 / 0 / 0"}
{"sequence": "UCUCCGCAUG", "pool": "0.105", "IR": "0.104 / 0.180 / 0.203", "LM": "0 / 0 / 0.0232", "Sys": "0 / 0 / 0"}
{"sequence": "UCUCCGCCAG", "pool": "0.170", "IR": "0.104 / 0.0719 / 0.0553", "LM": "0.0276 / 0 / 0", "Sys": "0 / 0 / 0"}

Extract of 2 entries:

UCUACGUGUG (pool 0.196) gave IR 0.122 / 0.216 / 0.129; LM 0 / 0 / 0.0464; Sys 0 / 0 / 0.
UCUACGUAUG (pool 0.301) gave IR 0.104 / 0.0898 / 0.0922; LM 2.57 / 0.0252 / 0.0696; Sys 0 / 0 / 0.